Measured values from several laboratories, pooled; numbers as filed in NIAID ChemDB.

Shared fields: whole-cell or culture tests; agent: Semliki Forest virus; method: cytopathic effect; read-out: EC50

ECn is the concentration giving n% inhibition of infection, replication or growth. Blank or dashed fields: not listed here. Lines come from different laboratories, so protocols vary.

structure	strain or isolate	cell line	value
CC=NC(=N)c1nc(-c2cccc(C)c2)n(Cc2ccccc2)n1	-	VERO	>10 µg/mL
Nc1nc2c(ncn2CC[C@H](O)CCO)c(=O)[nH]1	-	VERO	>400 µg/mL
C=CCc1ncn2c(=O)[nH]c(NC(C)=O)nc12	-	VERO	>200 µg/mL
NC(=S)c1cncc([C@@H]2O[C@H](CO)[C@@H](O)[C@@H]2O)c1	-	VERO	≥100 µg/mL
CC(=O)OC[C@H]1O[C@@H](n2ncc(=O)[nH]c2=S)C(OC(C)=O)C1OC(C)=O	Sicilian	VERO	20.9 µg/mL
Nc1nccc2c1ncn2[C@@H]1C[C@H](CO)[C@@H](O)[C@H]1O	-	VERO	10 µg/mL
O=c1ccn([C@@H]2O[C@H](CO)[C@](O)(C(F)(F)F)[C@H]2O)c(=O)[nH]1	-	VERO	>400 µg/mL
Nc1nc2c(ncn2[C@H]2CO[C@@H](CO)C2)c(=O)[nH]1	-	VERO	>400 µg/mL
NC(=O)c1cncc([C@H]2O[C@H](CO)[C@H](O)[C@@H]2O)c1	-	VERO	≥100 µg/mL
CC=NC(=N)c1nc(-c2ccccc2)n(C/C=C/c2ccccc2)n1	-	VERO	>10 µg/mL
Nc1ncnc2c1ncn2[C@@H]1C[C@H](COP(=O)(O)O)[C@@H](O)[C@H]1O	-	VERO	>200 µg/mL
NC(=O)c1[nH]nc([C@@H]2O[C@H](CO)[C@@H](O)[C@H]2O)c1O	Sicilian	VERO	0.53 µg/mL
Nc1ncnc2c1ncn2[C@@H]1C=C(CCl)[C@@H](O)[C@H]1O	-	VERO	>40 µg/mL
CC(=O)Nc1nc2c(CC(O)CO)nc(C)n2c(=O)[nH]1	-	VERO	>200 µg/mL
Nc1nccc2c1ncn2[C@@H]1C[C@H](CO)[C@@H](O)[C@H]1O	-	VERO	>400 µg/mL
CON=C1C[C@H](n2cc(C)c(=O)[nH]c2=O)O[C@@H]1CO	-	VERO	>200 µg/mL
CC=NC(=N)c1nc(-c2ccc(C)cc2)n(Cc2ccccc2)n1	-	VERO	>10 µg/mL
N#Cc1cncc([C@H]2O[C@H](CO)[C@H](O)[C@@H]2O)c1	-	VERO	≥100 µg/mL
Nc1ncnc2c1ncn2[C@@H]1C=C(CF)[C@H](O)[C@H]1O	-	VERO	>200 µg/mL
NC(=O)c1cncc([C@@H]2O[C@H](CO)[C@H](O)[C@@H]2O)c1	-	VERO	≥100 µg/mL
C[C@@]1(O)[C@@H](CO)O[C@@H](n2cnc3c(N)ncnc32)[C@@H]1O	-	VERO	>100 µg/mL
CC=NC(=N)c1nc(-c2ccccc2)n(Cc2ccccc2)n1	-	VERO	>4 µg/mL
Nc1ncnc2c1ncn2C[C@H](O)CO	-	VERO	150 µg/mL
Nc1ncnc2c1ncn2[C@@H]1C=C(CO)[C@@H](O)[C@H]1O	-	VERO	7 µg/mL
C[C@H]1O[C@@H](c2n[nH]c(C(N)=O)c2O)[C@H](O)[C@@H]1O	-	VERO	>200 µg/mL
Nc1nc(F)nc2c1ncn2[C@@H]1C=C(CO)[C@@H](O)[C@H]1O	-	VERO	≥100 µg/mL
CC=NC(=N)c1nc(-c2cccc(C)c2)n(COCCO)n1	-	VERO	>200 µg/mL
Nc1nc(Cl)c2ccn([C@H]3CO[C@@H](CO)C3)c2n1	-	VERO	>200 µg/mL
Cc1ccn2c(CSCCO)cnc2c1	-	VERO	>100 µg/mL
N#Cc1cncc([C@@H]2O[C@H](CO)[C@H](O)[C@@H]2O)c1	-	VERO	≥100 µg/mL
CC=NC(=N)c1nc(-c2cccc(OC)c2)n(Cc2ccccc2)n1	-	VERO	>10 µg/mL
CO[C@H](CO)[C@@H](O)CCn1ccc(N)nc1=O	-	VERO	>400 µg/mL
C=CCc1nc(C)n2c(=O)[nH]c(NC(C)=O)nc12	-	VERO	>200 µg/mL
Nc1ccn([C@@H]2C=C(CO)[C@@H](O)[C@H]2O)c(=O)n1	-	VERO	0.4 µg/mL
NC(=O)c1cncc([C@@H]2O[C@H](CO)[C@@H](O)[C@@H]2O)c1	-	VERO	≥100 µg/mL
O=c1cnn([C@@H]2O[C@H](CO)[C@@H](O)[C@H]2O)c(=S)[nH]1	Sicilian	VERO	1.65 µg/mL
Nc1ccn(CC[C@H](O)CCO)c(=O)n1	-	VERO	>400 µg/mL
COc1ncnc2c1ncn2[C@@H]1O[C@H](CO)[C@@H](O)[C@@H]1O	-	-	>100 µM
OC[C@H]1O[C@H](c2cncc(Br)c2)[C@@H](O)[C@@H]1O	-	VERO	≥100 µg/mL
CO[C@H](CO)[C@@H](O)CCn1cnc2c(=O)[nH]c(N)nc21	-	VERO	>400 µg/mL